Record: PubChem BioAssay AID504761 (Drosophila RNAi Screening Center, 2011)
The screen tested about 22,000 reagents; this is a random part of those with a known target gene and a result. In the full data, 116 (0.52%) are marked active. 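Calls depend on retest data that are not deposited; infection was ranked per plate without normalising between plates; the unit of the infection score is not given.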 Raw values vary from plate to plate and are shown uncorrected. Reagent sequences are not shown. The record does not give: the amount of reagent, the time to read-out.

Screen: 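Fly genes whose silencing reduces dengue virus type 2 infection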 (primary screen)
Cell system: D.Mel-2 cells from Drosophila
Knock-down reagent: long dsRNA against Drosophila genes
Conditions: infection with dengue virus type 2; dose and infection time not stated
Detection: 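Cells stained for dengue envelope protein and imaged; percent of infected cells per well on duplicate plates, ranked by infection, with stained nuclei counted for cell number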
Scale: infection score: higher = more virus-infected cells; cell count: higher = more cells in the well
Rule for the call: 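Low infection ranks in the two replicates (chance level up to 0.065) followed by a retest with a 1.5-fold or larger significant decrease, p below 0.05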
Meaning of the calls: active = confirmed: knock-down lowers infection; inactive = not picked or not confirmed

Target gene | amplicon | infection score, replicate 1 | infection score, replicate 2 | cell count, replicate 1 | cell count, replicate 2 | activity call
CG5793 | DRSC15874 | 19.3 | 9.29 | 2565 | 6414 | inactive
CG5793 | DRSC26692 | 6.36 | 2.92 | 6662 | 6064 | inactive
Pepck2 | DRSC06013 | 3.23 | 3.11 | 5790 | 5983 | inactive
Pepck2 | DRSC26167 | 5.17 | 1.48 | 6292 | 6553 | inactive
CG10494 | DRSC04072 | 8.78 | 25.6 | 6752 | 6061 | inactive
CG10494 | DRSC29883 | 12.7 | 12.3 | 5486 | 6025 | inactive
ind | DRSC23095 | 0.56 | 0.76 | 6262 | 6564 | active
Sec22 | DRSC18538 | 5.68 | 15.2 | 6425 | 6087 | inactive
Sec22 | DRSC29297 | 7.08 | – | 5860 | 255 | inactive
CG15890 | DRSC19737 | 13.2 | 18.5 | 6119 | 6291 | inactive
CG8435 | DRSC07179 | 19.7 | 14.4 | 4177 | 4246 | inactive
CG8435 | DRSC29713 | 18.3 | 10.4 | 5920 | 5608 | inactive
CG11710 | DRSC20485 | 1.39 | 3.74 | 5695 | 1177 | inactive
CG11710 | DRSC29756 | 2.33 | 2.4 | 6553 | 6367 | inactive
Cda5 | DRSC00529 | 0.73 | 6.22 | 6679 | 6724 | inactive
Cda5 | DRSC00532 | 0.96 | 7.7 | 6637 | 6522 | inactive
Cda5 | DRSC21330 | 0.39 | 5.9 | 6711 | 7318 | inactive
CG15160 | DRSC02461 | 14.8 | 3.92 | 5226 | 6192 | inactive
CG15160 | DRSC27129 | 13.7 | 6.86 | 6323 | 6020 | inactive
Rh2 | DRSC16821 | 13.2 | 3.49 | 3801 | 6396 | inactive
Rh2 | DRSC25598 | 1.92 | 1.16 | 5217 | 6202 | inactive
CG1773 | DRSC06688 | 3.88 | 6.65 | 5745 | 6060 | inactive
CG2540 | DRSC19856 | 5.81 | 22 | 6810 | 6465 | inactive
Pdfr | DRSC18614 | 3.65 | 4.72 | 6354 | 2245 | inactive
opm | DRSC20141 | 3.59 | 1.55 | 6128 | 6343 | inactive
opm | DRSC22135 | 2.86 | 19.6 | 5742 | 4881 | inactive
opm | DRSC29575 | 1.27 | – | 629 | 428 | inactive

10 entries from above in another layout:
Target gene	amplicon	infection score, replicate 1	infection score, replicate 2	cell count, replicate 1	cell count, replicate 2	activity call
Pepck2	DRSC26167	5.17	1.48	6292	6553	inactive
CG10494	DRSC04072	8.78	25.6	6752	6061	inactive
CG10494	DRSC29883	12.7	12.3	5486	6025	inactive
ind	DRSC23095	0.56	0.76	6262	6564	active
Sec22	DRSC18538	5.68	15.2	6425	6087	inactive
Sec22	DRSC29297	7.08		5860	255	inactive
CG15890	DRSC19737	13.2	18.5	6119	6291	inactive
CG8435	DRSC07179	19.7	14.4	4177	4246	inactive
CG8435	DRSC29713	18.3	10.4	5920	5608	inactive
CG11710	DRSC20485	1.39	3.74	5695	1177	inactive

Next entries follow.
Target gene | amplicon | infection score, replicate 1 | infection score, replicate 2 | cell count, replicate 1 | cell count, replicate 2 | activity call
CG10931 | DRSC06015 | 1.46 | 6.88 | 6901 | 6687 | inactive
Pex5 | DRSC18552 | 5.25 | 17.2 | 5411 | 5418 | inactive
Pex5 | DRSC26136 | 2.12 | 2.14 | 6591 | 6019 | inactive
tra2 | DRSC07708 | 10.3 | 8.61 | 6114 | 5530 | inactive
tra2 | DRSC29704 | 16.7 | 10 | 6144 | 5917 | inactive
REPTOR | DRSC14626 | 2.03 | 3.27 | 6537 | 5657 | inactive
REPTOR | DRSC24359 | 6 | 10.8 | 4465 | 4299 | inactive
Aldh-III | DRSC06047 | 2.6 | 3.97 | 6780 | 6315 | inactive
Aldh-III | DRSC26578 | 7.4 | 12.8 | 6054 | 5133 | inactive
DppIII | DRSC16241 | 7.58 | 12.3 | 6899 | 5820 | inactive
DppIII | DRSC27801 | 3.09 | 8.76 | 6602 | 7044 | inactive
CG17777 | DRSC18137 | 1.14 | 0.66 | 6250 | 6350 | inactive
Mdr49 | DRSC07466 | 26 | 8.62 | 5878 | 6065 | inactive
Mdr49 | DRSC24065 | 6.39 | 0.75 | 5759 | 5897 | inactive
CG1387 | DRSC17904 | 2.5 | 3.73 | 6560 | 6254 | inactive
r2d2 | DRSC03014 | 4.72 | 3.8 | 6606 | 6579 | inactive
r2d2 | DRSC29562 | 18.2 | 14.4 | 4956 | 3899 | inactive
wa-cup | DRSC12511 | 3.66 | 13.2 | 6467 | 5760 | inactive
wrd | DRSC16344 | 5.66 | 4.52 | 6832 | 5664 | inactive
wrd | DRSC23189 | 0.9 | 4.09 | 6113 | 6795 | inactive
wrd | DRSC25929 | 1.74 | 3.26 | 6374 | 6495 | inactive
CG5861 | DRSC02907 | 4.98 | 11 | 1585 | 5074 | inactive
CG13999 | DRSC02331 | 5.22 | 6.89 | 1399 | 2845 | inactive
CG13999 | DRSC29521 | – | 7.16 | 368 | 5379 | inactive
CG11857 | DRSC14411 | 5.31 | 2.96 | 5179 | 5439 | inactive
shg | DRSC04714 | 13.6 | 9.29 | 6625 | 6897 | inactive
shg | DRSC27751 | 34 | 3.62 | 5824 | 6606 | inactive
Cyp313a2 | DRSC16625 | 5.39 | 6.32 | 6937 | 7120 | inactive
CG30036 | DRSC21334 | 4.42 | 14.5 | 5887 | 5346 | inactive
CG2698 | DRSC15447 | 6.7 | 16.9 | 6672 | 2286 | inactive
CG13605 | DRSC14608 | 15.5 | 2.86 | 5837 | 6529 | inactive
